The source of these data is PubChem BioAssay AID504834 (National Center for Advancing Translational Sciences (NCATS), 2011).

The list shows a part of the results, in another mix than the full data. Results filed as inconclusive are left out. Some structures show a salt or complex split into parts, the way the source records it. Calls of active or inactive are those of the source. Calls come from the whole dose curve; as a rule, active = well fitted inhibition curve with a large enough effect; inconclusive = small, poorly fitted or top-dose-only effect, or another doubt; inactive = no such curve, though single readings can be large or run the other way.
% is set by controls: 0 for no effect and ±100 for the full control effect; potency is the fitted concentration of half-maximal effect.

A short description of this experiment: Primary qHTS for delayed death inhibitors of the malarial parasite plastid, 96 hour incubation. The conditions noted are these: P. falciparum luciferase reporter growth; series mostly up to 28.7 µM; activity change, negative = inhibition: at the top concentration.
In the case of `O=C(OC1CN2CCC1CC2)C1c2ccccc2C=Cc2ccccc21` (stereo unspecified), the Potency is active: 13.1 µM. Turning to `N/C(=N\O)c1c(N)no[n+]1[O-]`, the activity change, negative = inhibition is inactive: 1.36% [at 5.75 µM]. Still for that read-out and setting: then `CCOC(=O)C(CC)C1=NC(C)(C)Cc2ccccc21.O=[N+]([O-])c1cc([N+](=O)[O-])c(O)c([N+](=O)[O-])c1` (stereo unspecified), with inactive: 47.5%; and `O=[N+]([O-])c1cc([N+](=O)[O-])c(NCC2CCS(=O)(=O)C2)c([N+](=O)[O-])c1` (stereo unspecified), with inactive: 28.1%; and `O=C(OC1CN2CCC1CC2)c1ccc([N+](=O)[O-])cc1` (stereo unspecified), with inactive: 15.9%. Still for that read-out and setting: then `COc1ccc2c(c1O)-c1c(O)c(OC)cc3c1[C@H](C2)[N+](C)(C)CC3.O=[N+]([O-])c1cc([N+](=O)[O-])c([O-])c([N+](=O)[O-])c1[O-]`, with inactive: 41.7%.
